Compound potency records, mixed from different reports. Data source: NIAID ChemDB in PubChem.

Shared fields: toxicity to cultured cells; cells: MT-4; read-out: CC50

An empty or dashed field is not shown. Rows are shuffled and stem from different studies. CCn is the concentration with n% toxicity to the cells.

compound | method | value
CC(C)c1s/c(=N\S(=O)(=O)c2cccc([N+](=O)[O-])c2)n(C)c1Cl | MTT | 24 µM
CC(C)c1c(Sc2cccc3ccccc23)n(COCc2ccccc2)c(=O)[nH]c1=O | MTT | 35.3 µM
CC(Cc1ccc(O)c(O)c1)C(C)Cc1ccc(O)c(O)c1 |  | >10 µM
COP(=O)(OC[C@H]1O[C@@H](n2cc(C)c(=O)[nH]c2=O)C[C@@H]1N=[N+]=[N-])C(N)=O | MTT | 103 µM
COc1c(O)c(Br)c2c(c1OC)-c1c(c(Br)c(O)c(OC)c1OC)C[C@H](C)[C@H](C)C2 |  | 21.1 µM
O=S1(=O)N=Cc2cccn2-c2ccc(Cl)cc21 |  | 7.1 µM
CCC1(c2ccccc2)Oc2ccccc2-n2cccc2C1=O |  | 3.31 µM
CC(Sc1nc2ncccc2n1-c1ccc(C2CC2)c2ccccc12)C(=O)Nc1ccc(C(N)=O)cc1Br | MTT | 3.05 µM
COc1ccc2cc([C@H](C)C(=O)O)ccc2c1 |  | 1000 µM
CC(C)Cc1c(Sc2cccc3ccccc23)n(COCc2ccccc2)c(=O)[nH]c1=O | MTT | 32.51 µM
C1CNCCNCC(CCCC2CNCCNCCCNCCNC2)CNCCNC1 |  | 260 µM
CCOC(=O)P(=O)(OC[C@H]1O[C@@H](n2cc(C)c(=O)[nH]c2=O)C[C@@H]1N=[N+]=[N-])OC1CCCCC1 | MTT | 37.1 µM
Cc1c(Sc2cccc3ccccc23)n(COCc2ccccc2)c(=O)[nH]c1=O | MTT | 52.5 µM
CC(C)c1s/c(=N\S(=O)(=O)c2cc(C#N)ccc2C#N)n(C)c1Cl | MTT | 22 µM
CC(C)Nc1cccnc1N1CCN(C(=O)c2cc3cc(NS(C)(=O)=O)ccc3[nH]2)CC1 | MTT | 36.8 µM
CCOC(=O)P(=O)(OCCc1ccccc1)OC[C@H]1O[C@@H](n2cc(C)c(=O)[nH]c2=O)C[C@@H]1N=[N+]=[N-] | MTT | 197.1 µM
CC(C)c1c(Sc2cccc3ccccc23)n(COCCO)c(=O)[nH]c1=O | MTT | 77.07 µM
Cc1c(C(C)(C)C)s/c(=N\S(=O)(=O)c2ccccc2O)n1C | MTT | >25 µM
C/C=C(\C)CC/C=C(\C)CC/C=C(\C)CC/C=C(\C)CC/C=C(\C)CC/C=C(\C)CC/C=C(\C)CC/C=C(\C)CC/C=C(\C)Cn1c(C(=O)c2cccc3ccccc23)c(C(C)C)c(=O)[nH]c1=O | MTT | 72.01 µM
NCC#Cc1cn([C@H]2C=C[C@@H](CO)O2)c(=O)[nH]c1=O | MTT | >100 µM
Cc1ccnc2c1NC(=O)c1cccnc1N2C1CC1 |  | >200 µM
CC(C)c1s/c(=N\S(=O)(=O)c2cc(Cl)ccc2O)n(C)c1Cl | MTT | >25 µM
O=c1[nH]c(=O)n([C@H]2C=C[C@@H](CO)O2)cc1C#CCCO | MTT | 70 µM
CCc1c(C(=O)c2cccc3ccccc23)n(Cc2ccccc2)c(=O)[nH]c1=O | MTT | 33.67 µM
Cc1c(C(C)(C)C)s/c(=N\S(=O)(=O)c2cc(Cl)ccc2[N+](=O)[O-])n1C | MTT | 22 µM
CCC(C)C(=O)O[C@@]12[C@H](OC(C)=O)[C@@H](C)[C@]3(O)[C@@H]4C=C(C)C(=O)[C@H]4CC(CO)=C[C@H]3[C@@H]1C2(C)C | MTT | 57 µM
CC(=O)OCC1=C[C@H]2[C@@H]3C(C)(C)[C@]3(OC(C)=O)[C@H](OC(C)=O)[C@@H](C)[C@]2(O)[C@@H]2C=C(C)C(=O)[C@@]2(OC(C)=O)C1 |  | >250 µg/mL
CCOCn1c(Sc2ccc3ccccc3c2N)c(CC)c(=O)[nH]c1=O | MTT | 195 µM
CC(C)=CCN1C(C)CNc2ccc(Cl)cc2S1(=O)=O |  | 4.8 µM
Cc1c(Sc2ccccc2)n(COCCO)c(=O)[nH]c1=O | MTT | 405 µM
Cc1cn([C@H]2C[C@H](N=[N+]=[N-])[C@@H](COP(=O)(OCC(C)(C)C)C(N)=O)O2)c(=O)[nH]c1=O | MTT | 69.8 µM
CCOC(=O)c1ccc(NC(=O)CSc2nc3ncccc3n2-c2ccc(C3CC3)c3ccccc23)c(Cl)c1 | MTT | 3.14 µM
CC(C)c1s/c(=N\S(=O)(=O)c2cc(Br)ccc2O)n(C)c1Cl | MTT | >25 µM
CCOC(=O)Cn1c(C(=O)c2cccc3ccccc23)c(C(C)C)c(=O)[nH]c1=O | MTT | 37.01 µM
CCc1c(Sc2ccc3ccccc3c2)n(COC)c(=O)[nH]c1=O | MTT | 210 µM
CC(C)c1c(C(=O)c2cccc3ccccc23)n(Cc2ccccc2)c(=O)[nH]c1=O | MTT | 33.54 µM
O=C1c2cccn2-c2ccc(Cl)cc2S(=O)(=O)N1C/C=C/c1ccccc1 |  | >200 µM
Cc1c(C(C)(C)C)s/c(=N\S(=O)(=O)c2cc(Cl)ccc2C#N)n1C | MTT | 8 µM
CCCCCCCCCCCCCC(=O)O[C@@H]1[C@@H](C)[C@@]2(O)[C@@H](C=C(COC(C)=O)C[C@]3(O)C(=O)C(C)=C[C@@H]23)[C@@H]2C(C)(C)[C@]12OC(C)=O |  | >62.5 µg/mL
NC(=O)c1ccc(NC(=O)CSc2nc3ncccc3n2-c2ccc(C3CC3)c3ccccc23)c(Cl)c1 | MTT | 0.68 µM
CCCCCCCCCCCCCC(=O)O[C@@H]1[C@@H](C)[C@@]2(O)[C@@H](C=C(COC(C)=O)C[C@@]3(O)C(=O)C(C)=C[C@@H]23)[C@@H]2C(C)(C)[C@]12OC(C)=O |  | >1000 µg/mL
Cc1cn([C@H]2C[C@H](N=[N+]=[N-])[C@@H](COP(=O)(OC(C)C)C(N)=O)O2)c(=O)[nH]c1=O | MTT | 240.2 µM
CCOCn1c(Sc2ccc3ccccc3c2[N+](=O)[O-])c(CC)c(=O)[nH]c1=O | MTT | 43.89 µM
O=c1[nH]c(=O)n([C@H]2C=C[C@@H](CO)O2)cc1C#CCCCCO | MTT | 70 µM
C1CNCCNCCNCCN1 |  | 20 µM
CCCCCCCC/C=C/C(=O)O[C@@H]1[C@@H](C)[C@@]2(O)[C@@H](C=C(COC(C)=O)C[C@@]3(O)C(=O)C(C)=C[C@@H]23)[C@@H]2C(C)(C)[C@]12OC(C)=O |  | >500 µg/mL
C#CCN1C(=O)c2cccn2-c2ccc(Cl)cc2S1(=O)=O |  | 66.6 µM
CCCCCC(=O)O[C@@]12[C@H](OC(C)=O)[C@@H](C)[C@@]3(O)[C@@H](C=C(CO)C[C@]4(O)C(=O)C(C)=C[C@@H]34)[C@@H]1C2(C)C |  | >62.5 µg/mL
C(CCC1CNCCNCCCNCCNC1)CCC1CNCCNCCCNCCNC1 |  | 110 µM